{"source": "patent EP4349860A1", "about": "“Anti-sars-cov-2 antibodies” (Fundació Institut Hospital Del Mar D'Investigacions …, dated 2024)", "binders": {"B1": {"name": "mAb17T2 (antibody, V domains shown)", "VH": "QVQLVQSGPEVKKPGTSVKVSCKAPVFTFSISAVQWVRQARGQRLEWIGWIVVGSGNTNYAQNFQERVTITTDMSTGTVYMELSGLRSEDTAMYYCAAPYCNRTTCYDGFDLWGQGTMVTVSS", "VL": "EIVLTQSPGTLSLSPGERATLSCRASQSISSNYLAWYQQKPGQAPRLLIYGASSRATGIPDRFSGSGSGTDFTLSINRLEPEDFAMYYCQHYGGLSRWTFGQGTKVEIKR"}}, "test_in_all_cases": "cell-based or functional assay", "key": {"[1]": {"target": "T1, SARS-CoV-2 spike protein, WH1 variant, on pseudovirus (SARS-CoV-2.SctΔ19)"}, "[2]": {"target": "T2, SARS-CoV-2 spike protein, D614G variant, on pseudovirus"}, "[3]": {"target": "T1, SARS-CoV-2 spike protein, WH1 variant, …", "remark": "listed apart in the source"}, "[4]": {"target": "T2, SARS-CoV-2 spike protein, D614G …", "remark": "listed apart in the source"}}, "note": "Like-named read-outs stand apart in the source and are kept apart here."}
{"binder": "B1", "values": [{"measurement": "IC50 (µg/ml), pseudotyped virus neutralization", "setting": "[1]", "value": 0.0406, "unit": "µg/mL"}, {"measurement": "IC80 (µg/ml), pseudotyped virus neutralization", "setting": "[1]", "value": 0.0804, "unit": "µg/mL"}, {"measurement": "IC90 (µg/ml), pseudotyped virus neutralization", "setting": "[1]", "value": 0.12, "unit": "µg/mL"}, {"measurement": "IC50 (µg/ml), pseudotyped virus neutralization", "setting": "[2]", "value": 0.00792, "unit": "µg/mL"}, {"measurement": "IC80 (µg/ml), pseudotyped virus neutralization", "setting": "[2]", "value": 0.0153, "unit": "µg/mL"}, {"measurement": "IC90 (µg/ml), pseudotyped virus neutralization", "setting": "[2]", "value": 0.0226, "unit": "µg/mL"}, {"measurement": "IC50 (µg/ml), pseudotyped virus neutralization", "setting": "[3]", "value": 0.0383, "unit": "µg/mL"}, {"measurement": "IC50 (µg/ml), pseudotyped virus neutralization", "setting": "[4]", "value": 0.01, "unit": "µg/mL"}]}
